Results of unrelated studies side by side (data: NIAID ChemDB).

Shared fields: whole-cell or culture tests; species: Mycobacterium tuberculosis

Neighbouring rows are from separate reports. MIC bound: limit read from a one-dose screen. A number after MIC or MFC names an inhibition level or a share of isolates. An empty or dashed field is not shown. Inhibition is in % at the dose shown (toxicity tests: loss of growth or viability). ECn: concentration that inhibits the pathogen or its effect by n%.

structure	strain	method	read-out	dose	value
O=C(O)c1ccc(N2N=C3C(=CC(=O)c4ccccc43)SCC2=O)cc1	H37Rv	BACTEC	inhibition	12.5 µg/mL	99%
CCOC(=O)Nc1cc2oc(-c3cc(OC)c(OC)c(OC)c3)nc2c(N(CCc2ccccc2)Cc2ccccc2)n1	H37Rv		EC50		>12.5 µg/mL
CC(C)c1ccc2c(c1)CC[C@H]1[C@](C)(CNCCNC3CCC3)CCC[C@]21C			MIC		50 µM
CC(NCCN[C@@H]1C[C@@H]2C[C@H]([C@H]1C)C2(C)C)c1cccc2ccccc12			MIC		50 µM
O=[N+]([O-])c1ccc(N2CCCCC2)cc1	H37Rv		MIC		100 µg/mL
NC1CCN(c2nc3c(cc2F)c(=O)c(C(=O)O)cn3-c2ccc(F)cc2F)C1	ATCC35838		MBC		>8 µg/mL
Fc1ccccc1CNCCNCCCCc1ccccc1			MIC		50 µM
COc1ccc2c(c1)OC(c1ccccc1)CC2=O	H37Rv		inhibition	12.5 µg/mL	0%
CCCCCCCCCCCNCCN[C@@H](C)C1CCCCC1			MIC		25 µM
CCOC(=O)Nc1cc(Nc2ccc(Cl)cc2)c([N+](=O)[O-])c(N)n1	H37Rv		EC50		>12.5 µg/mL
NCC[C@H](O)C(=O)N[C@@H]1C[C@H](N)[C@@H](O[C@H]2O[C@H](CN)[C@@H](O)[C@H](O)[C@H]2O)[C@H](O)[C@H]1O[C@H]1O[C@H](CO)[C@@H](O)[C@H](N)[C@H]1O	MDR18	broth dilution / resazurin	MIC		4 µg/mL
COc1ccc(CSC(=S)Nc2ccc(C)c(Cl)c2)cc1	H37Rv	BACTEC	MIC bound		>12.5 µg/mL
CC[C@H]1OC(=O)[C@H](C)[C@@H](O[C@H]2C[C@@](C)(OC)[C@@H](O)[C@H](C)O2)[C@H](C)[C@@H](O[C@@H]2O[C@H](C)C[C@H](N(C)C)[C@H]2O)[C@](C)(O)C[C@@H](C)CN(C)[C@H](C)[C@@H](O)[C@]1(C)O	ATCC 35827		MBC		>8 µg/mL
NC1=NC(Cn2nc(-c3ccccc3)c3ccccc3c2=O)=NNC(=O)N1	H37Rv	BACTEC	MIC bound		>12.5 µg/mL
CC(C)=CCC/C(C)=C/CNCCN(Cc1ccccc1)Cc1ccccc1			MIC		25 µM
NC1=C(O)/C(=N/NS(=O)(=O)c2ccccc2)C(c2ccc3c(c2)OCO3)O1	H37Rv	BACTEC	MIC bound		>12.5 µg/mL
Nc1ccccc1/C=C/C(=O)c1cc(Br)ccc1O	H37Rv		inhibition	12.5 µg/mL	8%
CCn1c2ccc(N(C)C)cc2c2cc(N(C)C)ccc21	H37Rv	BACTEC	inhibition	12.5 µg/mL	34%
C=C1C/C(=C/C)C(=O)O[C@@H]2CCN3CC=C(COC(=O)[C@@]1(O)CO)[C@H]23	H37Rv		MIC		>100 µg/mL
Nc1ncccc1/C=C/C(=O)c1ccc2c(c1)-c1ccccc1C2			inhibition	12.5 µg/mL	53%
S=C1NC2=C(COC/C2=C/c2ccccc2Cl)C(c2ccccc2Cl)N1	H37Rv	BACTEC	inhibition	12.5 µg/mL	87%
CCOC(=O)Nc1cc2nc(C)c(-c3ccc(O)cc3)nc2c(N)n1	H37Rv		inhibition	12.5 µg/mL	8%
S=C=Nc1cccc2ccccc12	H37Rv		MIC		25 µg/mL
NNC(=O)c1cccc(N)c1C(=O)NN	H37Rv	BACTEC	MIC bound		>12.5 µg/mL
O=[N+]([O-])c1ccc(-c2ccccn2)cc1	H37Rv		MIC		>100 µg/mL
Nc1cccc(Nc2cc(S(=O)(=O)O)c(N)c3c2C(=O)c2ccccc2C3=O)c1	H37Rv	BACTEC	inhibition	12.5 µg/mL	3%
c1ccc([C@H]2C[C@@H]2NCCNC23CC4CC(CC(C4)C2)C3)cc1			MIC		25 µM
CCC1OC(=O)CC(O)C(C)C(OC2OC(C)CC(N(C)C)C2O)C(CC=O)CC(C)C(=O)/C=C\C2(C)OC2C1C	H37Rv	BACTEC	MIC		≥12.5 µg/mL
CC(CNC[C@@H]1CC[C@H]2C[C@@H]1C2(C)C)NC[C@@H]1CC[C@H]2C[C@@H]1C2(C)C			MIC		6.25 µM
COc1ccc(/C=C/C(=O)c2cccc(I)c2O)cc1			EC50		>12.5 µg/mL
Cc1[nH]c2ccc(N(C)C)cc2c(=O)c1C	H37Rv	BACTEC	inhibition	12.5 µg/mL	10%
CC1(C)[C@@H]2CC[C@@]1(C)[C@@H](NCCNCC(c1ccccc1)c1ccccc1)C2			MIC		6.25 µM
CCCCC(CC)CN1CN(CC(CC)CCCC)CC(C)(NCCNC(C)CC(C)C)C1			MIC		25 µM
CO[C@H]1/C=C/O[C@@]2(C)Oc3c(C)c(O)c4c(O)c(c(/C=N/N5CCN(C)CC5)c(O)c4c3C2=O)NC(=O)/C(C)=C\C=C\[C@H](C)[C@H](O)[C@@H](C)[C@@H](O)[C@@H](C)[C@H](OC(C)=O)[C@@H]1C	TN728		MIC		>32 µg/mL
COc1cc2c(cc1Oc1ccc(OC)c3c1CC1c4c(cc(OC)c(OC)c4-3)CCN1C)CC1c3c(cc(OC)c(OC)c3-2)CCN1C	H37Rv		MIC		6.3 µg/mL
COc1ccc(CNCCNC23CC4CC(CC(C4)C2)C3)c(OC)c1			MIC		25 µM
CCOC(=O)CCCCCCCCCCCC[C@H]1C=CCC1	H37Rv		MIC		>100 µg/mL
Fc1ccccc1CNCCNCc1ccco1			MIC		50 µM
C[C@@H]1CN(c2ccccc2)C[C@H](C)OS(=O)O1	H37Rv	BACTEC	inhibition	12.5 µg/mL	10%
Nc1ccc([N+](=O)[O-])cc1O	H37Rv		MIC		>100 µg/mL
Nc1cc2nc3ccccc3sc-2cc1=O	H37Rv	BACTEC	inhibition	12.5 µg/mL	99%
CCCCCCCCC1SC1CCCCCCCC(=O)O	H37Rv		MIC		>100 µg/mL
CCOC(=O)Nc1cc2c(c(N)n1)N=C(c1ccc(F)cc1)CN2	H37Rv		EC50		<12.5 µg/mL
CC(=O)N1CC(C)(C)c2c(C)c(O)c(C)c(C)c21	H37Rv	resazurin	inhibition	6.25 µg/mL	11%
CCOC(=O)Nc1ccc(N)c(N)n1	H37Rv		EC50		>12.5 µg/mL
NC(=S)N/N=C/c1ccc([N+](=O)[O-])cc1	H37Rv		MIC		12.5 µg/mL
CCCCCNCCNCC12CC3CC(CC(C3)C1)C2			MIC		50 µM
CO[C@H]1/C=C/O[C@@]2(C)Oc3c(C)c(O)c4c(=O)c(c5oc6cc(N7CCN(C(C)C)CC7)cc(=O)c6nc5c4c3=C2O)NC(=O)/C(C)=C\C=C\[C@H](C)[C@H](O)[C@@H](C)[C@@H](O)[C@@H](C)[C@H](OC(C)=O)[C@@H]1C	3147 (rifampin-sensitive)		MBC		0.012 µg/mL
NC(=O)CSc1nc(N)nc(N)n1	H37Rv		MIC		>100 µg/mL
CO[C@H]1/C=C/O[C@@]2(C)Oc3c(C)c(O)c4c(O)c(c(/C=N/N5CCN(C/C=C/c6ccccc6)CC5)c(O)c4c3C2=O)NC(=O)/C(C)=C\C=C\[C@H](C)[C@H](O)[C@@H](C)[C@@H](O)[C@@H](C)[C@H](OC(C)=O)[C@@H]1C	35 (rifampin-resistant)		MIC		0.2 µg/mL
O=c1cc2oc3cc(O)c(O)cc3c(-c3ccccc3)c-2cc1O	H37Rv	BACTEC	inhibition	12.5 µg/mL	12%
FC(F)(F)c1ccc(CNCCNCCc2ccc(Cl)cc2Cl)cc1			MIC		50 µM
CCOC(=O)Nc1cc(N(C)CC(=O)c2ccc(O)cc2)c([N+](=O)[O-])c(N)n1	H37Rv		inhibition	12.5 µg/mL	2%
c1ccc2c(c1)sc1c([As](c3cccc4c3sc3ccccc34)c3cccc4c3sc3ccccc34)cccc12	H37Rv		MIC		>100 µg/mL
CC[C@H]1OC(=O)[C@H](C)[C@@H](O[C@H]2C[C@@](C)(OC)[C@@H](O)[C@H](C)O2)[C@H](C)[C@@H](O[C@@H]2O[C@H](C)C[C@H](N(C)C)[C@H]2O)[C@](C)(OC)C[C@@H](C)C(=O)[C@H](C)[C@@H](O)[C@]1(C)O	DRUG-SUS		MBC90		>8 µg/mL
OC1(C#CC2(O)CCCCC2)CCCCC1	H37Rv		MIC		50 µg/mL
CC12CC(=O)OC(C1)C(=O)c1ccccc12	H37Rv	BACTEC	MIC bound		>12.5 µg/mL
COc1ccc(/C=C/C(=O)c2cccc(F)c2O)cc1			EC50		>12.5 µg/mL
CC[C@H](C)c1occ2c(O)c(C(=O)O)c(=O)cc-2c1C	H37Rv	BACTEC	MIC bound		>12.5 µg/mL
Nc1ccc2cc(S(=O)(=O)O)ccc2c1	H37Rv		MIC		100 µg/mL
O=S(=O)(c1ccccc1)N1c2ccccc2Sc2ccccc21	H37Rv	BACTEC	MIC bound		>12.5 µg/mL
Nc1nc(Cl)cc(Cl)n1	H37Rv		MIC		>100 µg/mL
COc1cc(OC)c2c(c1)OC(c1ccc(O)cc1)CC2=O			EC50		>12.5 µg/mL
CC(=O)Nc1cc(Cl)ccc1C(C)=O	H37Rv		MIC		>100 µg/mL
CCCCNC(=O)P(=O)(O)c1ccccc1	H37Rv	BACTEC	MIC bound		>12.5 µg/mL
O/N=C/c1cc(O)ccc1O	H37Rv		MIC		25 µg/mL
OCc1ccccc1Sc1ccccc1CNCCNCC(c1ccccc1)c1ccccc1			MIC		6.25 µM
CC(C)(C)c1ccc(OCC(=O)O)cc1	H37Rv		MIC		>100 µg/mL
c1ccc(CNCCNCCC(c2ccccc2)c2ccccc2)cc1			MIC		50 µM
CC(=O)/C=C/c1ccc(O)cc1	H37Rv		MIC		>100 µg/mL
O=[N+]([O-])c1cccn2nc(COCCO)nc12	H37Rv	resazurin	MIC bound		>6.25 µg/mL
NC(=O)NCCCCC(=O)O	H37Rv		MIC		>100 µg/mL
NC[C@H]1O[C@H](O[C@H]2[C@H](O)[C@@H](O[C@H]3O[C@H](CO)[C@@H](O)[C@H](N)[C@H]3O)[C@H](N)C[C@@H]2N)[C@H](O)[C@@H](O)[C@@H]1O	H37Rv		MIC		>128 µg/mL
CC1CN(c2cc3c(cc2F)c(=O)c(C(=O)O)cn3-c2ccc(F)cc2F)CCN1	DRUG-SUS		MIC90		2 µg/mL
Brc1ccc2sc3ccccc3c2c1	H37Rv		MIC		>100 µg/mL

Repeating the first 10 entries:

structure	strain	method	read-out	dose	value
O=C(O)c1ccc(N2N=C3C(=CC(=O)c4ccccc43)SCC2=O)cc1	H37Rv	BACTEC	inhibition	12.5 µg/mL	99%
CCOC(=O)Nc1cc2oc(-c3cc(OC)c(OC)c(OC)c3)nc2c(N(CCc2ccccc2)Cc2ccccc2)n1	H37Rv		EC50		>12.5 µg/mL
CC(C)c1ccc2c(c1)CC[C@H]1[C@](C)(CNCCNC3CCC3)CCC[C@]21C			MIC		50 µM
CC(NCCN[C@@H]1C[C@@H]2C[C@H]([C@H]1C)C2(C)C)c1cccc2ccccc12			MIC		50 µM
O=[N+]([O-])c1ccc(N2CCCCC2)cc1	H37Rv		MIC		100 µg/mL
NC1CCN(c2nc3c(cc2F)c(=O)c(C(=O)O)cn3-c2ccc(F)cc2F)C1	ATCC35838		MBC		>8 µg/mL
Fc1ccccc1CNCCNCCCCc1ccccc1			MIC		50 µM
COc1ccc2c(c1)OC(c1ccccc1)CC2=O	H37Rv		inhibition	12.5 µg/mL	0%
CCCCCCCCCCCNCCN[C@@H](C)C1CCCCC1			MIC		25 µM
CCOC(=O)Nc1cc(Nc2ccc(Cl)cc2)c([N+](=O)[O-])c(N)n1	H37Rv		EC50		>12.5 µg/mL